Measured data: PubChem BioAssay AID1259414 (Drosophila RNAi Screening Center, 2018)
In all, the deposit lists about 24,000 reagents; below is an unselected part of those with a known target gene and a result. Over the whole deposit, about 1,210 (5%) are marked active. 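Inactive calls also include excluded dsRNAs with several or no targets, genes unexpressed in JW18, and well A1, regardless of score.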 A plus sign joins genes that one reagent is predicted to hit.

Test: 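Genome-wide screen for host control of endosymbiont load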 (primary screen)
System: Drosophila JW18 cells infected with Wolbachia
Reagents: long dsRNA against Drosophila genes, 0.25 µg dsRNA per well of a 384-well plate
Duration: 5 days
Conditions: cells persistently infected with Wolbachia before knock-down; no added drug
Detection: 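Imaged fluorescence in situ signal for Wolbachia 23S rRNA per DAPI-counted host cell, given as a robust z-score within each plate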
Reading the numbers: Wolbachia per cell robust z: higher = more Wolbachia per host cell than the plate typical
Hit rule: 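Hit when robust z is 1.5 or more, or -1.5 or less, in at least two of three replicates; excludes dsRNAs with several or no targets, genes not expressed in JW18 and well A1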

Knock-down of CG5084 [DRSC06913] came out at: Wolbachia per cell robust z, rep 1 = -0.0712; Wolbachia per cell robust z, rep 2 = -1.1; Wolbachia per cell robust z, rep 3 = -0.308; inactive.
CG5084 [DRSC27650] gave Wolbachia per cell robust z, rep 1 = -1.05; Wolbachia per cell robust z, rep 2 = -2.1; Wolbachia per cell robust z, rep 3 = -1.5; inactive.
CG42329 [DRSC00373] showed Wolbachia per cell robust z, rep 1 = -6.72; Wolbachia per cell robust z, rep 2 = -6.9; Wolbachia per cell robust z, rep 3 = 0.461; inactive.
CG42329 [DRSC00682] scored Wolbachia per cell robust z, rep 1 = -0.735; Wolbachia per cell robust z, rep 2 = -0.0661; Wolbachia per cell robust z, rep 3 = -0.297; inactive.
After knock-down of Arglu1 (Arginine and glutamate rich 1) [DRSC02909], the record shows Wolbachia per cell robust z, rep 1 = -1.53; Wolbachia per cell robust z, rep 2 = 0.674; Wolbachia per cell robust z, rep 3 = 0.732; inactive.
Arglu1 (Arginine and glutamate rich 1) [DRSC28836] gave Wolbachia per cell robust z, rep 1 = 0.069; Wolbachia per cell robust z, rep 2 = -0.276; Wolbachia per cell robust z, rep 3 = -0.903; inactive.
Silencing of lbl (ladybird late) [DRSC16986] resulted in: Wolbachia per cell robust z, rep 1 = 0.29; Wolbachia per cell robust z, rep 2 = -0.411; Wolbachia per cell robust z, rep 3 = 0.477; inactive.
For Setd3 (SET domain containing 3) [DRSC17840] the deposit lists Wolbachia per cell robust z, rep 1 = -0.239; Wolbachia per cell robust z, rep 2 = -1.2; Wolbachia per cell robust z, rep 3 = 0.293; inactive.
Silencing of Setd3 (SET domain containing 3) [DRSC18269] came out at: Wolbachia per cell robust z, rep 1 = 0.478; Wolbachia per cell robust z, rep 2 = -4.85; Wolbachia per cell robust z, rep 3 = 0.565; inactive.
For CG17646 [DRSC00507] the deposit lists Wolbachia per cell robust z, rep 1 = 1.31; Wolbachia per cell robust z, rep 2 = -0.000568; Wolbachia per cell robust z, rep 3 = 0.123; inactive.
For Tyler + Shawn [DRSC19564], the entry reads Wolbachia per cell robust z, rep 1 = 0.327; Wolbachia per cell robust z, rep 2 = 0.15; Wolbachia per cell robust z, rep 3 = -0.928; inactive.
For PIG-T (Phosphatidylinositol glycan anchor biosynthesis class T) [DRSC17774] the deposit lists Wolbachia per cell robust z, rep 1 = 0.805; Wolbachia per cell robust z, rep 2 = -4.06; Wolbachia per cell robust z, rep 3 = 0.731; inactive.

An excerpt of the results above, as a working copy:
lbl (ladybird late) [DRSC16986]: Wolbachia per cell robust z, rep 1 = 0.29; Wolbachia per cell robust z, rep 2 = -0.411; Wolbachia per cell robust z, rep 3 = 0.477; Outcome = inactive
Setd3 (SET domain containing 3) [DRSC17840]: Wolbachia per cell robust z, rep 1 = -0.239; Wolbachia per cell robust z, rep 2 = -1.2; Wolbachia per cell robust z, rep 3 = 0.293; Outcome = inactive
